Results of unrelated studies side by side (data: NIAID ChemDB).

All rows: tests on isolated targets

Two numbers with a dash give a range or band. ICn is the concentration giving n% inhibition. An empty or dashed field is not shown. Inhibition is in % at the dose shown (toxicity tests: loss of growth or viability). Lines come from different laboratories, so protocols vary.

compound,dose,target,agent,method,measure,value
COc1ccc(C(=O)O)cc1NC(=O)C1(NC(=O)c2ccc3c(c2)nc(-c2ccoc2)n3C2CCCCC2)CCCC1,,NS5B polymerase,Hepatitis C virus,,IC50,0.5–5 µM
O=C(NCCc1ccccc1F)Nc1ccsc1-c1nc(C(=O)O)c(O)c(=O)[nH]1,,HCV polymerase,Hepatitis C virus,,IC50,<25 µM
O=C(O)/C=C/c1ccc(NC(=O)C2(NC(=O)c3ccc4c(c3)nc(-c3ccccn3)n4C3CCCC3)CCCC2)cc1,,NS5B polymerase,Hepatitis C virus,,IC50,0.5–5 µM
CCOC(=O)c1cnn2c(-c3ccccc3)c(-c3ccc(OCc4ccccc4)cc3)cnc12,,RNA-dependent RNA polymerase,Hepatitis C virus,,IC50,>10 µM
CC(C)[C@H](NC(=O)[C@@H](NC(=O)CCC(=O)O)C1CCCCC1)C(=O)N[C@@H](CCC(=O)O)C(=O)NC1(C(=O)O)CC1,167 µM,Nonstructural protein 3 NTPase/helicase,Hepatitis C virus,,inhibition,30%
COc1ccccc1NC(=O)Nc1cccc(-c2nc(C(=O)O)c(O)c(=O)[nH]2)c1,,HCV polymerase,Hepatitis C virus,,IC50,<100 µM
O=C(Nc1cnn2c(C3CCCCC3)c(-c3ccc(OCc4ccccc4)cc3)cnc12)C1CC1,,RNA-dependent RNA polymerase,Hepatitis C virus,,IC50,>10 µM
Nc1cccc(-c2nc(C(=O)O)c(O)c(=O)[nH]2)c1,,HCV polymerase,Hepatitis C virus,,IC50,<100 µM
CCN(CCO)c1cc(C(=O)Nc2ccc3cn[nH]c3c2)c(F)cc1F,1 µg/mL,Reverse transcriptase,Hepatitis B virus,,inhibition,83%
CC(NC(=O)c1ccc2c(c1)nc(-c1ccoc1)n2C1CCCCC1)C(=O)Nc1ccc(CC(=O)O)cc1,,NS5B polymerase,Hepatitis C virus,,IC50,0.5–5 µM
O=C(NCc1ccccc1F)Nc1ccccc1-c1nc(C(=O)O)c(O)c(=O)[nH]1,,HCV polymerase,Hepatitis C virus,,IC50,<100 µM
CN(C)CCNc1cc(C(=O)Nc2ccc3cn[nH]c3c2)c(F)cc1F,0.01 µg/mL,Reverse transcriptase,Hepatitis B virus,,inhibition,19%
CC(NC(=O)c1ccc2c(c1)nc(-c1ccoc1)n2C1CCCCC1)C(=O)Nc1ccc(/C=C/C(=O)O)cc1,,NS5B polymerase,Hepatitis C virus,,IC50,<0.5 µM
CN(C)CCNc1cc(C(=O)Nc2ccc3[nH]ncc3c2)c(F)cc1F,,Reverse transcriptase,Hepatitis B virus,,IC50,0.01–0.1 µg/mL
O=C(O)/C=C/c1ccc(NC(=O)C2(NC(=O)c3ccc4c(c3)nc(-c3ccc(OCC(=O)NCCNC(=O)c5ccc(C(=O)c6ccccc6)cc5)cc3)n4C3CCCCC3)CCNCC2)cc1,,NS5B polymerase,Hepatitis C virus,,IC50,5–25 µM
CC(C)C[C@H](NC(=O)[C@H](CCC(=O)O)NC(=O)[C@@H](NC(=O)CCC(=O)O)C1CCCCC1)C(=O)NC1(C(=O)O)CC1,,Nonstructural protein 3 NTPase/helicase,Hepatitis C virus,,IC50,>83.5 µM
O=C(Nc1cscc1-c1nc(C(=O)O)c(O)c(=O)[nH]1)NS(=O)(=O)c1cccc(Cl)c1Cl,,HCV polymerase,Hepatitis C virus,,IC50,<25 µM
O=C(O)/C=C/c1ccc(NC(=O)C2(NC(=O)c3ccc4c(c3)nc(-c3ccc[nH]3)n4C3CCCCC3)CCCC2)cc1,,NS5B polymerase,Hepatitis C virus,,IC50,<0.5 µM
O=C(O)CCCC(=O)N[C@H](C(=O)N[C@@H](CCC(=O)O)C(=O)N[C@@H](CCC(=O)O)C(=O)N[C@@H](CS)C(=O)O)C1CCCCC1,167 µM,Nonstructural protein 3 NTPase/helicase,Hepatitis C virus,,inhibition,94%
O=C(O)c1nc(-c2ccccc2NS(=O)(=O)c2cccc3nonc23)[nH]c(=O)c1O,,HCV polymerase,Hepatitis C virus,,IC50,<100 µM
COc1cccc(-c2cc(-c3ccc(F)cc3)nc3cc(C(=O)O)nn23)c1,,RNA-dependent RNA polymerase,Hepatitis C virus,,IC50,>10 µM
Cc1nc(Nc2ccc(NC(=O)C3(NC(=O)c4ccc5c(c4)nc(-c4ccoc4)n5C4CCCCC4)CCCC3)cn2)sc1C(=O)O,,NS5B polymerase,Hepatitis C virus,,IC50,0.5–5 µM
CC(C)(C)OC(=O)C(=O)N[C@H](C(=O)N1C[C@@H](n2cc(-c3ccccc3)nn2)C[C@H]1C(=O)N[C@H](Cc1ccccc1)C(=O)NS(=O)(=O)C1CC1)C(C)(C)C,,Nonstructural protein 3/4A,Hepatitis C virus,FRET,IC50,>100 µM
O=C(CN1CCN(c2ccccc2)CC1)Nc1cscc1-c1nc(C(=O)O)c(O)c(=O)[nH]1,,HCV polymerase,Hepatitis C virus,,IC50,<25 µM
O=C(Nc1ccc2[nH]ncc2c1)c1cc(NCCc2ccccn2)c(F)cc1F,0.1 µg/mL,Reverse transcriptase,Hepatitis B virus,,inhibition,23%
O=C(Nc1ccccc1-c1nc(C(=O)O)c(O)c(=O)[nH]1)NC1CCc2ccccc21,,HCV polymerase,Hepatitis C virus,,IC50,<100 µM
CC(C)[C@H](NC(=O)[C@@H](NC(=O)CCC(=O)O)C1CCCCC1)C(=O)N[C@@H](CCC(=O)O)C(=O)N[C@@H](CS)C(=O)O,16.7 µM,Nonstructural protein 3 NTPase/helicase,Hepatitis C virus,,inhibition,36%
O=C(Nc1ccc2cn[nH]c2c1)c1cc(NCCN2CCOCC2)c(F)cc1F,0.01 µg/mL,Reverse transcriptase,Hepatitis B virus,,inhibition,12%
CC(C)(C)OC(=O)CC[C@@H](CC(=O)C(=O)NCc1ccc(Cl)cc1)NC(=O)C[C@@H](NC(=O)C[C@@H](NC(=O)C[C@@H](NC(=O)CCC(=O)O)C1CCCCC1)C1CCCCC1)C1CCCCC1,,Nonstructural protein 3/4A,Hepatitis C virus,FRET / fluorescence,IC50,1 µM
O=C(NC(CO)C(=O)O)c1cc2nc(-c3ccc(OCc4ccccc4)cc3)c(C3CCCCC3)c(=O)n2[nH]1,,RNA-dependent RNA polymerase,Hepatitis C virus,,IC50,1–10 µM
Cc1c(C(=O)N[C@H](C)C(=O)Nc2ccc(/C=C/C(=O)O)cc2)ccc2c1nc(-c1ccoc1)n2C1CCCCC1,,NS5B polymerase,Hepatitis C virus,,IC50,0.5–5 µM
O=C(Nc1ccc2cn[nH]c2c1)c1cc(NCCCn2ccnc2)c(F)cc1F,0.01 µg/mL,Reverse transcriptase,Hepatitis B virus,,inhibition,30%
CC(C)C[C@@H](NC(=O)CC1(CC(=O)O)CCCC1)C(=O)N[C@H](CC(F)F)C(=O)NCCc1ccc(C(=O)O)cc1Cl,,NS3 serine protease,Hepatitis C virus,,IC50,21 µM
CC(=O)N[C@H](C(=O)N[C@@H](CCC(=O)O)C(=O)N[C@@H](CCC(=O)O)C(=O)NC1(C(=O)O)CC1)C1CCCCC1,83.5 µM,Nonstructural protein 3 NTPase/helicase,Hepatitis C virus,,inhibition,18%
NS(=O)(=O)c1ccc(CCNc2cc(C(=O)Nc3ccc4cn[nH]c4c3)c(F)cc2F)cc1,1 µg/mL,Reverse transcriptase,Hepatitis B virus,,inhibition,75%
N[C@H](C(=O)N[C@@H](CCC(=O)O)C(=O)N[C@@H](CCC(=O)O)C(=O)N[C@@H](CS)C(=O)O)C1CCCCC1,167 µM,Nonstructural protein 3 NTPase/helicase,Hepatitis C virus,,inhibition,0%
C[C@@H](NC(=O)c1ccc2c(c1)nc(-c1ccoc1)n2C1CCCCC1)C(=O)Nc1ccc(-c2csc(N)n2)cc1,,NS5B polymerase,Hepatitis C virus,,IC50,0.5–5 µM
O=C(Nc1ccc2[nH]ncc2c1)c1cc(NCCN2CCOCC2)c(F)cc1F,0.1 µg/mL,Reverse transcriptase,Hepatitis B virus,,inhibition,55%
COc1ccc(C)c(Oc2ccc(-c3cnc4c(-c5nn[nH]n5)cnn4c3C3CCCCC3)cc2)c1,,RNA-dependent RNA polymerase,Hepatitis C virus,,IC50,1–10 µM
O=C(O)CCC(=O)N[C@H](C(=O)N[C@@H](CCC(=O)O)C(=O)N[C@@H](Cc1ccc2ccccc2c1)C(=O)N[C@@H](CS)C(=O)O)C1CCCCC1,167 µM,Nonstructural protein 3 NTPase/helicase,Hepatitis C virus,,inhibition,100%